Measured values from ChEMBL document CHEMBL4513135, “CO-ADD screening of IQOG CSIS (Spain) compounds”.

What was measured:
Candida albicans = conditions: ATCC 90028, Concentration 32.0 ug.mL-1; further: assay method not described here
Klebsiella pneumoniae = conditions: ATCC 700603, Concentration 32.0 ug.mL-1
Cryptococcus neoformans = conditions: ATCC 208821, Concentration 32.0 ug.mL-1

In the case of `COc1ccc(C=C(C#N)C#N)cc1`, the inhibition (Candida albicans) is reported as -0.5%, the inhibition (Klebsiella pneumoniae) is reported as 4.4% and the inhibition (Cryptococcus neoformans) is reported as -2.14%.
